Measured values from several laboratories, pooled; numbers as filed in NIAID ChemDB.

Shared fields: whole-cell or culture tests; organism: Mycobacterium tuberculosis

An empty or dashed field is not shown. MIC50, MIC90 and the like: level of inhibition, or share of isolates inhibited. Neighbouring rows are from separate reports. ECn is the concentration giving n% inhibition of infection, replication or growth. MIC bound comes from a single tested concentration. Inhibition is in % at the dose shown (toxicity tests: loss of growth or viability).

smiles | strain or isolate | mutations | cells | method | endpoint | tested at | value
Cc1occc1C(=S)Nc1ccc(Cl)c(COC(C)(C)C)c1 | H37Rv |  |  | BACTEC | inhibition | 12.5 µg/mL | 98%
O=[N+]([O-])c1cccc2c(C3CCCCC3)cc(C3CCCCC3)nc12 | H37Rv |  |  |  | MIC |  | 1 µg/mL
OC[C@@H](O)[C@@H](O)[C@H](O)[C@H](O)/C=N/Nc1ccccc1 | H37Rv |  |  | resazurin | MIC bound |  | >6.25 µg/mL
O=C(CSc1nnc(-c2ccccn2)s1)N/N=c1/scc(-c2ccccc2)n1-c1cccc(Br)c1 | Clinical isolate 331 |  |  |  | MIC |  | >80 µg/mL
O=C(c1ccc(Cc2ccc(C(=O)C(Cl)Cl)cc2)cc1)C(Cl)Cl | H37Rv |  |  |  | MIC |  | 6.25 µg/mL
O=c1c2cc([N+](=O)[O-])cnc2sn1-c1ccc(Oc2ccccc2)cc1 | H37Rv |  |  | resazurin | inhibition | 6.25 µg/mL | 97%
O=C(CSc1nnc(-c2ccccn2)s1)N/N=c1/scc(-c2ccc(Cl)cc2)n1-c1ccccc1 | Clinical isolate 190 |  |  |  | MIC |  | 40 µg/mL
CO[C@H]1/C=C/O[C@@]2(C)Oc3c(C)c(NCCO)c4c(c3C2=O)C(O)C(/C=N/N2CCN(C)CC2)=C(NC(=O)/C(C)=C\C=C\[C@H](C)[C@H](O)[C@@H](C)[C@@H](O)[C@@H](C)[C@H](OC(C)=O)[C@@H]1C)C4=O |  |  |  | resazurin | MIC90 |  | >4.6 µM
O=C(NCCc1ccccc1)c1cc([N+](=O)[O-])cc([N+](=O)[O-])c1 | RifR | Rifampicin-resistant |  | broth dilution / turbidity / visual reading | MIC |  | 1.59 µM
O=C1CSC(c2c(-c3ccccc3)nc3sc(-c4cccs4)nn23)N1c1ccccc1 | H37Rv |  |  | BACTEC | inhibition | 6.25 µg/mL | <90%
COc1cc([C@@H]2c3cc4c(cc3[C@@H](Nc3ccc(F)cc3)[C@H]3COC(=O)[C@H]23)OCO4)cc(OC)c1O | H37Rv |  |  | BACTEC | MIC |  | ≥12.8 µg/mL
Nc1c(Br)cc(O)c(CC(=O)O)c1Br | H37Rv |  |  |  | MIC |  | 49 µM
Cc1ccc(C2=Nn3c(nc4sc5c(c4c3=O)CCCC5)SC2)cc1 | H37Rv |  |  | resazurin | inhibition | 6.25 µg/mL | 8%
CC1CCCC2(C1)SCC(=O)N2NC(=O)Cc1csc2nc(-c3ccc(Cl)cc3)cn12 | H37Rv |  |  |  | EC50 |  | >6.25 µg/mL
CC1(C)OC2C(C(=O)NCC(=O)O)OC(n3cnc4c(N)ncnc43)C2O1 | H37Rv |  |  | BACTEC | inhibition | 12.5 µg/mL | 4%
O=C(c1ccc(CCc2ccc(C(=O)C(Br)Br)cc2)cc1)C(Br)Br | H37Rv |  |  |  | MIC |  | 3.125 µg/mL
O=C(CSc1nnc(-c2ccccn2)s1)N/N=c1/scc(-c2ccccc2)n1-c1ccccc1Br | H37Rv |  |  |  | MIC |  | >80 µg/mL
O=C(c1ccc(Sc2ccc(C(=O)C(Cl)Cl)cc2)cc1)C(Cl)Cl | H37Rv |  |  |  | MIC |  | 1.56 µg/mL
O=C(Nc1ccc(Br)cc1)c1ccccc1O | My 331/88 |  |  |  | MIC |  | 31 µM
Cc1cccc(C(N)=Nc2nc(-c3ccccn3)cc3ccccc23)c1 | J-3113 |  |  |  | MIC |  | 1 µg/mL
CC(C)(C)OC(=O)CCC(NC(=O)OCC1c2ccccc2-c2ccccc21)C(=O)NC(Cc1c[nH]c2ccccc12)C(=O)NC(CCCCNC(=O)OC(C)(C)C)C(=O)N1CCCC1C(=O)NCC(N)=O | H37Rv |  |  | resazurin | MIC bound |  | >6.25 µg/mL
CO[C@H]1/C=C/O[C@@]2(C)Oc3c(c4c(O)c(/C=N/N5CCN(C)CC5)c(c5nn(C)c(c3C)c45)=NC(=O)/C(C)=C\C=C\[C@H](C)[C@H](O)[C@@H](C)[C@@H](O)[C@@H](C)[C@H](OC(C)=O)[C@@H]1C)C2=O |  |  |  | resazurin | MIC90 |  | >4.8 µM
O=C(c1ccc(Cc2ccc(C(=O)C(Br)Br)cc2)cc1)C(Br)Br | H37Rv |  |  |  | MIC |  | 6.25 µg/mL
CC(Cc1ccccc1)N(C)Cc1ccc(-c2ccc(Cl)cc2)o1 | H37Rv |  |  | BACTEC | inhibition | 12.5 µg/mL | 99%
COc1ccc(C(=O)Nc2cncs2)c(O)c1 | My 331/88 |  |  |  | MIC |  | 250 µM
Cc1ccc(C(C)NC(=O)c2cc([N+](=O)[O-])c(C)c([N+](=O)[O-])c2)cc1 | RifR | Rifampicin-resistant |  | broth dilution / turbidity / visual reading | MIC |  | 0.17 µM
C#CC(C)(C)OCCCCOc1cc(O)c2c(=O)c3ccccc3n(C)c2c1 | H37Rv |  |  | resazurin | inhibition | 6.25 µg/mL | 16%
CO[C@H]1/C=C/O[C@@]2(C)Oc3c(C)c(NCc4ccccc4)c4c(c3C2=O)C(O)C(/C=N/N2CCN(C)CC2)=C(NC(=O)/C(C)=C\C=C\[C@H](C)[C@H](O)[C@@H](C)[C@@H](O)[C@@H](C)[C@H](OC(C)=O)[C@@H]1C)C4=O |  |  |  | low oxygen | MIC90 |  | >17.5 µM
Cc1ccc(NC(=O)c2ccc3cc(O)ccc3c2)cc1 | H37Ra ATCC 25177 |  |  | broth dilution / visual reading | MIC |  | 27 µM
CNc1c(C)c2c3c4c1C(=O)C(=C(/C=N/N1CCN(C)CC1)C4O)NC(=O)/C(C)=C\C=C\[C@H](C)[C@H](O)[C@@H](C)[C@@H](O)[C@@H](C)[C@H](OC(C)=O)[C@H](C)[C@@H](OC)/C=C/O[C@@](C)(O2)C3=O |  |  |  | resazurin | MIC90 |  | 4 µM
CC1(C)S[C@@H]2[C@H](NC(=O)[C@H](C(=O)[O-])c3ccsc3)C(=O)N2[C@H]1C(=O)[O-].[Na+].[Na+] | 28 strains |  |  |  | MIC90 |  | >64 µg/mL
C1CCCC(N2CCCN(C3CCCCCCC3)CC2)CCC1 | H37Rv |  |  |  | MIC |  | 12.5 µM
CCCCCCOc1c(C(C)=O)cc([N+](=O)[O-])c2nccc(CC)c12 | H37Rv |  |  |  | inhibition | 6.25 µg/mL | 76%
Brc1ccc(-c2nc3sc(-c4cccs4)nn3c2CC2CCOCC2)cc1 | H37Rv |  |  | BACTEC | inhibition | 6.25 µg/mL | <90%
COc1cc2c(c(OC)c1O)-c1ccc(OC)c(=O)cc1[C@@H](NC(=O)C(F)(F)F)CC2 | H37Rv |  |  | BACTEC | inhibition | 12.5 µg/mL | 38%
CC1CCC(=NNC(=O)Cc2csc3nc(-c4ccc(Cl)cc4)cn23)CC1 | H37Rv |  |  |  | inhibition | 6.25 µg/mL | 4%
CC[C@]12CCCN3CCc4c(n(c5ccccc45)C(=O)C1)[C@@H]32 | H37Rv |  |  | BACTEC | inhibition | 12.5 µg/mL | 8%
COc1ccc(NC(=O)c2ccccc2O)cc1 | My 331/88 |  |  |  | MIC |  | 62 µM
CCCOc1c(C(C)=O)cc(N)c2nccc(CC)c12 | H37Rv |  |  |  | MIC |  | >6.25 µg/mL
O=C(Nc1ccc(F)cc1)c1ccccc1O | My 331/88 |  |  |  | MIC |  | 62 µM
CCC1CCC2(CC1)SC(C)C(=O)N2NC(=O)Cc1csc2nc(-c3ccc(Cl)cc3)cn12 | H37Rv |  | VERO |  | MIC |  | 6.25 µg/mL
Brc1ccc(-c2cn3nc(-c4ccco4)sc3n2)cc1 | H37Rv |  |  | BACTEC | inhibition | 6.25 µg/mL | <90%
COc1ccc(C(=O)Nc2nccc(C)n2)c(O)c1 | My 331/88 |  |  |  | MIC |  | 32 µM
O=c1oc2ccccc2c(=O)n1-c1ccc([N+](=O)[O-])cc1 | My 331/88 |  |  |  | MIC |  | 16 µM
Cc1cccc(NC(=O)c2ccc3cc(O)ccc3c2)c1 | H37Ra ATCC 25177 |  |  | broth dilution / visual reading | MIC |  | 27 µM
Brc1ccc(-c2nc3sc(-c4cccs4)nn3c2CN2CCCC2)cc1 | H37Rv |  |  | BACTEC | inhibition | 6.25 µg/mL | <90%
O=C(Nc1ncn[nH]1)c1cc(Br)ccc1O | My 331/88 |  |  |  | MIC |  | 500 µM
Nc1cccc2ccc(C3CCCCC3)nc12 | H37Rv |  |  |  | inhibition | 6.25 µg/mL | 9%
CCC1CCC2(CC1)SCC(=O)N2NC(=O)Cc1csc2nc(-c3ccccc3)cn12 | H37Rv |  | VERO |  | inhibition | 6.25 µg/mL | 99%
Nc1ccccc1C(=O)Nc1ccc(Br)cc1 | My 331/88 |  |  |  | MIC |  | 125 µM
CC(C)c1ccc2cccc([N+](=O)[O-])c2n1 | H37Rv |  |  |  | inhibition | 6.25 µg/mL | 3%
O=C(c1ccc(Cc2ccccc2)cc1)C(Br)Br | H37Rv |  |  |  | MIC |  | 12.5 µg/mL
CN(C)c1ccc(NC(=O)c2ccccc2O)cc1 | My 331/88 |  |  |  | MIC |  | 250 µM
O=C(CSc1nnc(-c2ccccn2)s1)N/N=c1/scc(-c2ccc([N+](=O)[O-])cc2)n1-c1ccccc1 | Clinical isolate 331 |  |  |  | MIC |  | >80 µg/mL
Cc1cc(NC(=O)c2ccccc2O)no1 | My 331/88 |  |  |  | MIC |  | 16 µM
O=C(c1ccc(-c2ccccc2)cc1)C(Br)Br | H37Rv |  |  |  | MIC |  | 6.25 µg/mL
COc1ccc(C=C2C=C(C(C)(C)C)C(=O)C(C(C)(C)C)=C2)cc1 | H37Rv |  |  | BACTEC | MIC |  | 3.13 µg/mL
COc1c(C(C)=O)cc([N+](=O)[O-])c2nc(C(C)(C)C)ccc12 | H37Rv |  |  |  | inhibition | 6.25 µg/mL | 0%
COC1[C@H](O)[C@@H](O)C(O)[C@H](O)[C@H]1O | H37Rv |  |  | BACTEC | MIC bound |  | >12.5 µg/mL
CC(=O)c1cc([N+](=O)[O-])c2ncccc2c1C(C)C | H37Rv |  |  |  | MIC |  | >6.25 µg/mL
O=C(Nc1ccccc1)c1ccccc1O | My 331/88 |  |  |  | MIC |  | 62 µM
O=C(CSc1nnc(-c2ccccn2)s1)N/N=c1/scc(-c2ccccc2)n1-c1ccc(Br)cc1 | Clinical isolate 331 |  |  |  | MIC |  | >80 µg/mL
CN(C)c1c([N+](=O)[O-])cc(N2C(=O)C=CC2=O)cc1[N+](=O)[O-] | H37Rv |  |  | BACTEC | inhibition | 12.5 µg/mL | 5%
CC1CCCC2(C1)SC(C)C(=O)N2NC(=O)Cc1csc2nc(-c3ccccc3)cn12.O | H37Rv |  |  |  | MIC |  | <6.25 µg/mL
COc1cc(C2CC(=O)c3ccccc3O2)ccc1O | H37Rv |  |  |  | MIC |  | 8 µg/mL
COC1=C(Br)C(O)C2(C=C1Br)CC(C(=O)NCC(O)COc1c(Br)cc(C(O)CNC(=O)C3=NOC4(C=C(Br)C(OC)=C(Br)C4O)C3)cc1Br)=NO2 | H37Rv |  |  |  | MIC |  | 7.1 µM
COC(=O)c1ccc(SCC(=O)c2ccc([N+](=O)[O-])o2)cc1 | H37Rv |  |  | BACTEC | MIC bound |  | ≤12.5 µg/mL
O=C(Nc1ncn[nH]1)c1ccccc1O | My 331/88 |  |  |  | MIC |  | 500 µM
COc1ccc(-n2c(=O)oc3ccccc3c2=O)cc1 | My 331/88 |  |  |  | MIC |  | 125 µM
CCOC(=O)[C@H]1O[C@@H]([C@@]2(C)O[C@]3(O[C@]4(C=C[C@H]3O)O[C@H]([C@@H](C)C(=O)[C@@H](C)[C@@H](O)[C@H](C)C[C@H](C)c3c(Cl)cc(C)c(O)c3C(=O)O)[C@@H](C)C[C@H]4C)[C@H](C)[C@H]2OC)C[C@H]1O | CS-R |  |  |  | MIC |  | 6.3 µg/mL
O=C(c1ccc(Cc2ccccc2)cc1)C(Cl)Cl | H37Rv |  |  |  | MIC |  | 6.25 µg/mL
O=[N+]([O-])c1cccc2ccc(C3CCCCC3)nc12 | Ethambutol-resistant |  |  |  | MIC |  | 25 µg/mL
Cc1cc(NC(=O)c2cc(Cl)ccc2O)no1 | My 331/88 |  |  |  | MIC |  | 125 µM
O=C(Nc1cccc2c(C3CCCCC3)cc(C3CCCCC3)nc12)C(F)(F)F | Rifampicin-resistant |  |  |  | MIC |  | 50 µg/mL
O=[N+]([O-])c1ccc(N2CCN(Cc3ccccc3)CC2)c2c1no[n+]2[O-] | H37Rv |  |  | resazurin | MIC bound |  | <6.25 µg/mL
NC1CCC(CC2CCC(NCc3ccc(OCc4ccccc4)cc3)CC2)CC1 | H37Rv |  |  |  | MIC |  | 1.56 µM
CN(C)NP(=O)(c1ccccc1)c1ccccc1 | H37Rv |  |  | BACTEC | MIC bound |  | >12.5 µg/mL
O=C(CSc1nnc(-c2ccccn2)s1)N/N=c1/scc(-c2cccc([N+](=O)[O-])c2)n1-c1ccccc1 | Clinical isolate 331 |  |  |  | MIC |  | >80 µg/mL
c1ccc(-c2nc3sc(-c4ccco4)nn3c2CN2CCCCC2)cc1 | H37Rv |  |  | BACTEC | inhibition | 6.25 µg/mL | <90%
NC(=O)C[n+]1cccc(C(N)=O)c1.[Cl-] | H37Rv |  |  | BACTEC | MIC |  | ≥12.5 µg/mL
CC1CCC/C(=N\NC(=O)Cc2csc3nc(-c4ccccc4)cn23)C1 | H37Rv |  |  |  | MIC |  | >6.25 µg/mL

A second listing of 7 rows from above:

smiles,strain or isolate,mutations,cells,method,endpoint,tested at,value
CN(C)NP(=O)(c1ccccc1)c1ccccc1,H37Rv,,,BACTEC,MIC bound,,>12.5 µg/mL
O=C(c1ccc(-c2ccccc2)cc1)C(Br)Br,H37Rv,,,,MIC,,6.25 µg/mL
NC(=O)C[n+]1cccc(C(N)=O)c1.[Cl-],H37Rv,,,BACTEC,MIC,,≥12.5 µg/mL
O=C(NCCc1ccccc1)c1cc([N+](=O)[O-])cc([N+](=O)[O-])c1,RifR,Rifampicin-resistant,,broth dilution / turbidity / visual reading,MIC,,1.59 µM
CCC1CCC2(CC1)SCC(=O)N2NC(=O)Cc1csc2nc(-c3ccccc3)cn12,H37Rv,,VERO,,inhibition,6.25 µg/mL,99%
O=C(c1ccc(Sc2ccc(C(=O)C(Cl)Cl)cc2)cc1)C(Cl)Cl,H37Rv,,,,MIC,,1.56 µg/mL
Cc1cc(NC(=O)c2cc(Cl)ccc2O)no1,My 331/88,,,,MIC,,125 µM